Only a part is listed here, and it is no random draw. Activity calls are given as the source filed them. Rule as the data show it: active = inhibition above about 32%; inactive = the rest.

The test in a line: TEAD-YAP interaction inhibition, primary screen, TEAD-YAP interaction inhibitor project, luminescence, HEK-TIYL cells (AID 1259422).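 Also: 0% = median of test compound wells and 100% = reference inhibitor wells.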 Particulars: TEAD-Gal4/YAP UAS-luciferase luminescence, at 9.12 µM, hits give high values.
Consider `O=C(O)Cc1ccc(N(CCCl)CCCl)cc1`, for which the inhibition was inactive: 3.59%.

The inhibition is the drop in the measured response relative to a control, in per cent.

The values are drawn from PubChem BioAssay AID1259422 (The Scripps Research Institute Molecular Screening Center, 2018).
